Assay results from US4347182A, “Preparation of penicillanic acid derivatives” (dated 1982).
pIC50: −log10 of the molar value.

The chains behind the UniProt entries cited, without tags or fusion partners. Residues count along the entry.
UniProt P05364, 21-381 limits assumed: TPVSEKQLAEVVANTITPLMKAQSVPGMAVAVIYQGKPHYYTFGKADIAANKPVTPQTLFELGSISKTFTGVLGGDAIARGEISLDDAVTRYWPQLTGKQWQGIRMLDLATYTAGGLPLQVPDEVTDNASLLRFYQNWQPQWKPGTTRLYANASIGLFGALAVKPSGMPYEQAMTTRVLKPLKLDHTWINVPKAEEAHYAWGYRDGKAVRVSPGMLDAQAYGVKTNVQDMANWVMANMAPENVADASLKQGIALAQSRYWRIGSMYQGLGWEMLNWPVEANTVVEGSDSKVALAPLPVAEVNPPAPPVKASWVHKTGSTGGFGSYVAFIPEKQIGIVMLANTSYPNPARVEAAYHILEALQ
UniProt P00807, 25-281 limits assumed: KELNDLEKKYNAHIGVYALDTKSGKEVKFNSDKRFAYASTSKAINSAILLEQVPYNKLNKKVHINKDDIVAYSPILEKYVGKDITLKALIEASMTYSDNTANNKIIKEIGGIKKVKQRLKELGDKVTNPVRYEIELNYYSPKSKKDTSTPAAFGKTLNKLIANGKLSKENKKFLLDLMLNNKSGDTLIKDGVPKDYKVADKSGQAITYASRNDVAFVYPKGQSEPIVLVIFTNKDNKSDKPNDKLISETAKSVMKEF
UniProt P62593, 24-286 limits assumed: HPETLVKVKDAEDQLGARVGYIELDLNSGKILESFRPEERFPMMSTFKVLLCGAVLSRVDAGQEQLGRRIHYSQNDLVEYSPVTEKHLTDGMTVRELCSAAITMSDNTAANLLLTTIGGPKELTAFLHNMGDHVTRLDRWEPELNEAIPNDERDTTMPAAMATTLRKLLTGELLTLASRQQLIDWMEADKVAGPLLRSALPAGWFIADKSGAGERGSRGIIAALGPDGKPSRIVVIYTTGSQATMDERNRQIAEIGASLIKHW

Tests used:
[1] = target: Enterobacter P 99 β-lactamase (Enterobacter cloacae, UniProt P05364); assay: β-lactamase inhibition, chromogenic cephalosporin as substrate, cell-free enzyme preparation; settings: 50 μg/ml of inhibitor, pre-incubation
[2] = target: Staphylococcus Russell β-lactamase (Staphylococcus aureus, UniProt P00807); assay: as above; settings: read-out: concentration of inhibitor required to produce 50% inhibition of hydrolysis, pre-incubation of enzyme with inhibitor
[3] = system: Klebsiella aerogenes E 70 β-lactamase; assay: as above; settings: pre-incubation of enzyme with inhibitor
[4] = target: Escherichia coli JT 4 β-lactamase (Escherichia coli, UniProt P62593); assay: as above; settings: 50 μg/ml of inhibitor, pre-incubation
E. coli J T 39 = assay: MIC of ampicillin in the presence of the inhibitor
Staph. aureus Russell = assay: MIC of ampicillin in the presence of the inhibitor; settings: inhibitor conc. 20 μg/ml
Proteus sp. C889 = assay: MIC of ampicillin in the presence of the inhibitor; settings: inhibitor conc. 5 μg/ml
Klebsiella aerogenes E70 = assay: MIC of ampicillin in the presence of the inhibitor; settings: inhibitor conc. 5 μg/ml
β-lactamase = settings: Cartwright et al., Nature 278, 1979, page 360; cited from earlier work

CC1(C)S[C@@H]2[C@H](Cl)C(=O)N2[C@H]1C(=O)O
inhibition of hydrolysis [1]: 31%
pIC50 [2]: 5.90
concentration of inhibitor required to produce 50% inhibition of hydrolysis [3]: 6.5 µg/mL
inhibition of hydrolysis [4]: approximately 42%
MIC of Ampicillin (E. coli J T 39; inhibitor conc. 5 μg/ml): 500 µg/mL
MIC of Ampicillin (E. coli J T 39; inhibitor conc. 20 μg/ml): 500 µg/mL
MIC of Ampicillin (Staph. aureus Russell): 0.1 µg/mL
MIC of Ampicillin (Proteus sp. C889): 500 µg/mL
MIC of Ampicillin (Klebsiella aerogenes E70): 25 µg/mL

CC1(C)S[C@@H]2[C@@H](Cl)C(=O)N2[C@H]1C(=O)O
inhibitor of β-lactamase (β-lactamase): not an inhibitor of β-lactamase
